This note sets out measurements from paper PMC6151865, “Targeting protein biotinylation enhances tuberculosis chemotherapy” (Science Translational Medicine, 2018).

The experiment concerns Mtb. Kind of experiment: Viability of Mtb in standard liquid culture (CFU). The format is cell-based, Mycobacterium tuberculosis. As to conditions: after 10 days of drug exposure.

Each structure is given as a SMILES string.

As for `NNC(=O)c1ccncc1` [isoniazid], the “emergence of resistant mutants in liquid culture” value is reported as “mutants resistant to isoniazid appeared”.
